Reference: PubChem BioAssay AID588519 (ICCB-Longwood Screening Facility, Harvard Medical School, 2011)
The entries are a selection whose mix differs from that of the whole data set. Active and inactive are the calls of the source. Rule as the data show it: active = % elongation below about 90%; inactive = the rest, inconclusive results apart.

target: Genome polyprotein (Poliovirus type 1 (strain Mahoney)) (UniProt P03300); experiment: poliovirus RdRp elongation inhibitors, primary screen, biochemical, fluorescence polarization, total intensity (AID 588519); conditions: poliovirus polymerase elongation, hits give low values, compound at 16.7 µg/mL

Compound | % elongation
FC(F)(F)Oc1ccc(NC2CCNCC2)cc1 | inactive: 99%
NC(=O)C1(Nc2ccc(F)cc2)CCNCC1 | inactive: 103%
Cc1ccc(C(=O)NCC2(N(C)C)CCCCC2)o1 | inactive: 106%
CCCCOc1ccccc1C(=O)NCC1(N2CCOCC2)CCCCC1 | inactive: 105%
O=C(NCC1(N2CCOCC2)CCCCC1)c1ccccc1Br | inactive: 98%
c1ccc(CN2CCC(Nc3ccc4c(c3)OCO4)CC2)cc1 | inactive: 96%
Cn1nc(C(=O)NCC2(N3CCCCC3)CCCCC2)c2ccccc2c1=O | inactive: 102%
CCOc1ccc(C(=O)NCC2(N3CCOCC3)CCCCC2)cc1 | inactive: 105%
CC(C)(C)OC(=O)N1CCC(Nc2ccc(OC(F)(F)F)cc2)CC1 | inactive: 103%
CCCOc1cccc(C(=O)NCC2(N3CCOCC3)CCCCC2)c1 | inactive: 101%
O=C(NCC1(N2CCOCC2)CCCCC1)c1ccc(Cl)cc1 | inactive: 97%
O=C(NCC1(N2CCOCC2)CCCCC1)c1ccc2nc[nH]c2c1 | inactive: 106%
O=C1CCN(Cc2ccccc2)CC1 | inactive: 105%
CCOC(=O)N1CCC(Nc2ccc(F)cc2)CC1 | inactive: 100%
COc1ccccc1C(=O)NCC1(N2CCOCC2)CCCCC1 | inactive: 109%
CCOC(=O)N1CCC(Nc2cccc(C)c2)CC1 | inactive: 98%
COc1ccc(C(=O)NCC2(N3CCCCC3)CCCCC2)cc1 | inactive: 107%
CCCN1CCC(Nc2ccc(OC)c(OC)c2)CC1 | inactive: 99%
CC1CN(CCc2ccccc2)CCC1=O (stereo unspecified) | inactive: 106%
Cc1cnc(C(=O)NCC2(N3CCCCC3)CCCCC2)cn1 | inactive: 101%
N#CC1(Nc2ccccc2)CCN(Cc2ccccc2)CC1 | inactive: 99%

Compound | % elongation
CCOc1ncccc1C(=O)NCC1(N(C)C)CCCCC1 | inactive: 100%
COc1cc(C(=O)NCC2(N3CCOCC3)CCCCC2)cc(OC)c1OC | inactive: 105%
CCOc1ncccc1C(=O)NCC1(N2CCCCC2)CCCCC1 | inactive: 100%
O=C(NCC1(N2CCCCC2)CCCCC1)c1n[nH]c2ccccc12 | inactive: 90%
CN(C)C1(CNC(=O)c2ccc(C(C)(C)C)cc2)CCCCC1 | inactive: 108%
CCN1CCC(Nc2ccc(F)cc2)CC1 | inactive: 100%
CC(C)(C)c1ccc(C(=O)NCC2(N3CCOCC3)CCCCC2)cc1 | inactive: 108%
O=c1[nH]c2ccccc2n1C1CCN(CCCC(c2ccc(F)cc2)c2ccc(F)cc2Cl)CC1 (stereo unspecified) | inactive: 100%
CC1CN(CCc2ccccc2)C(C)CC1=O (stereo unspecified) | inactive: 112%
CN(C)c1ccc(C(=O)NCC2(N3CCCCC3)CCCCC2)cc1 | inactive: 107%
Cc1ccccc1C(=O)NCC1(N(C)C)CCCCC1 | inactive: 107%
O=C(NCC1(N2CCOCC2)CCCCC1)c1ccc([N+](=O)[O-])cc1 | inactive: 106%
O=C(NCC1(N2CCOCC2)CCCCC1)c1ccccc1[N+](=O)[O-] | inactive: 106%
O=C(NCC1(N2CCOCC2)CCCCC1)c1cc2ccccc2cc1O | inactive: 99%
CCCN1CCC(Nc2cc(OC)cc(OC)c2)CC1 | inactive: 101%
O=C(NCC1(N2CCOCC2)CCCCC1)c1ccccc1 | inactive: 104%
Cc1c(C(=O)NCC2(N3CCOCC3)CCCCC2)oc2c(Cl)cccc12 | inactive: 103%
NC(=O)C1(Nc2ccccc2)CCN(Cc2ccccc2)CC1 | inactive: 103%
CN1CCC(Nc2ccc(F)cc2)CC1 | inactive: 99%
O=C1CCN(CCc2ccccc2)CC1 | inactive: 105%
